The target in this series is T1, PtxR (Pseudomonas aeruginosa PAO1) (UniProt P72131).
T1 sequence (looked up, limits assumed): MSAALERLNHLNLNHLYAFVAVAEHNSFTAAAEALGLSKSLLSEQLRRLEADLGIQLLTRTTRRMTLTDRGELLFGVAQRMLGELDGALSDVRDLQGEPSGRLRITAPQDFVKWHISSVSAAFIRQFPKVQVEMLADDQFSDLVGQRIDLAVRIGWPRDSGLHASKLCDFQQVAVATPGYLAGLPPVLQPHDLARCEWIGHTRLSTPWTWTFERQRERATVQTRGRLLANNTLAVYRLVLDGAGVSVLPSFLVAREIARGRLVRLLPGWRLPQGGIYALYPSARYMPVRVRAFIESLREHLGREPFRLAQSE
The series is described as follows: DNase I footprinting. The conditions noted are these: recombinant protein; protein details: C-terminal His6 (pET24b); label: 32P end label; probe letters rebuilt from the primers and the genome.

The exact form of at least one protein or probe is not confirmed. At least one verdict was read from the data and is not stated in words by the source. Protein sequences can lack the tags named with them.

With “CAACTGATCGTTCGCGGCTCGACCCATCCACGCGGCTAGCGGCCCGCCGCCGGCGCGTTGCCGGCGGCTTTCGCACGGCTTGAAATGAAACCGGTTTCAGAGGATCGCCAATGTCCCTTCACCCCGTCTCCATCAGTCTTTCCAGCTATGGCGCGGACCTCGTTCGCAGTCGCGGCCAGGCCAGCTTCCTGCCCTTGCTGGCGATGGCCGGCGCGCAGCGCGTGGAACTGCGCGAGGAACTCTTCGCCGGCCCGCCGGATACCGAGGCGCTGACCGCCGCCATCCAGTT (double strand) [Pkgu promoter fragment]”, the binding result is “binds”.
